Data as given in PubChem BioAssay AID624099 (ICCB-Longwood, 2012).

Test: 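Host factors E2 relies on to silence an HPV18 LCR reporter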 (primary screen)
Cells: human C33A cervical carcinoma cells (HPV-negative) stably expressing BPV1 E2 and an HPV18 LCR luciferase reporter
Reagents: siRNA pool against human genes, 40 nM
Timing: 72 h
Measurement: 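Per-well luciferase luminescence, z-scored on each plate against the plate mean and SD with control wells left out, then averaged across three replicate plates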
Reading the numbers: mean z-score and z-score: higher = stronger reporter signal, weaker E2 silencing
Rule for the call: 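Hit if mean z-score reaches 2 and two or more of three replicate z-scores also reach 2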
Shown is an unselected part of about 21,000 reagents tested. 497 of them (2.4%) count as active. 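Higher z means weaker E2 silencing; only reporter increases were scored, and knock-downs that hurt cell survival may mask genuine repressor factors.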 Reagent sequences are not shown.

For LOC389983 (retired record), what was measured?
mean z-score: -0.74; z-score, replicate A: -0.91; z-score, replicate B: -0.48; z-score, replicate C: -0.83; Outcome: inactive

Which result is listed for NEK8 (NIMA related kinase 8)?
mean z-score: 0.31; z-score, replicate A: 0.61; z-score, replicate B: 0.16; z-score, replicate C: 0.18; Outcome: inactive

What did the screen give for OPRPN (opiorphin prepropeptide)?
mean z-score: 0.29; z-score, replicate A: 0.86; z-score, replicate B: 0.25; z-score, replicate C: -0.26; Outcome: inactive

With SLC35G5, how do the results read?
mean z-score: 0.54; z-score, replicate A: 0.64; z-score, replicate B: 0.61; z-score, replicate C: 0.36; Outcome: inactive

For MC5R (melanocortin 5 receptor), what was measured?
mean z-score: -0.85; z-score, replicate A: -1.21; z-score, replicate B: -0.82; z-score, replicate C: -0.51; Outcome: inactive

What is on record for BTG1 (BTG anti-proliferation factor 1)?
mean z-score: -0.01; z-score, replicate A: -0.21; z-score, replicate B: 0.13; z-score, replicate C: 0.06; Outcome: inactive

What did the screen give for PNMA3 (PNMA family member 3)?
mean z-score: 0.78; z-score, replicate A: 0.58; z-score, replicate B: 0.58; z-score, replicate C: 1.18; Outcome: inactive

What is on record for SIGLEC7 (sialic acid binding Ig like lectin 7)?
mean z-score: -0.89; z-score, replicate A: -0.69; z-score, replicate B: -1.1; z-score, replicate C: -0.89; Outcome: inactive

For CDH3 (cadherin 3), how do the results read?
mean z-score: -0.52; z-score, replicate A: -0.58; z-score, replicate B: -0.74; z-score, replicate C: -0.23; Outcome: inactive

With SELENOK (selenoprotein K), what was measured?
mean z-score: -0.6; z-score, replicate A: -0.6; z-score, replicate B: -0.78; z-score, replicate C: -0.41; Outcome: inactive

For RAVER1 (ribonucleoprotein, PTB binding 1), what does the deposit list?
mean z-score: 1.19; z-score, replicate A: 1.28; z-score, replicate B: 1.26; z-score, replicate C: 1.02; Outcome: inactive

How did the screen score ABHD11 (abhydrolase domain containing 11)?
mean z-score: -0.6; z-score, replicate A: -0.32; z-score, replicate B: -0.62; z-score, replicate C: -0.87; Outcome: inactive

Single entries from the list:
For “mean z-score”, NEK8 (NIMA related kinase 8) shows 0.31
Under “Outcome”, SIGLEC7 (sialic acid binding Ig like lectin 7) shows inactive
